Values quoted from earlier work in US20230172941A1, “PROPHYLAXIS AND TREATMENT OF PATHOGENIC CORONAVIRUS INFECTIONS” (published 2023).

Tested on: chimeric antigen-receptor modified T cells

## ibrutinib
  activity of CAR T cells in killing their targets: augments the activity of chimeric antigen-receptor modified T cells in killing their targets
